Results of unrelated studies side by side (data: NIAID ChemDB).

All rows: cytotoxicity tests; measure: CC50

Two numbers with a dash give a range or band.

structure,cells,read by,value
COc1cccc(CNC(=O)c2ccc3ncnc(Nc4ccc(N5CCOCC5)cc4)c3c2)c1,HUH 9B,,>25 µM
O=c1[nH]c(=O)n([C@@H]2O[C@H](CO)[C@@H](O)[C@@H]2F)cc1I,CCRF-HSB-2,,4 µM
CCCc1cc(=O)oc2c(C(=O)CC)c(O)c(C(=O)CC)c(O)c12,CV-1,,80 µg/mL
Nc1ncc(/C=N/O)c(NCC2(CO)CCC2)n1,MDCK,,40–72 µM
COc1ccc(/C=N/n2cc(C(=O)O)c3ccccc3c2=O)cc1,HEP-2/L-929/VERO,,500 µM
CCCN(Cc1ccccc1OCC(=O)OCC)C(=O)c1ccc(-c2ccc3c(c2)OCO3)cc1,BJ,,>20 µM
Cc1cn([C@H]2C=C[C@@H](COC(=O)CC3(C)C[C@](C)(O)CO3)O2)c(=O)[nH]c1=O,JM,,>500 µM
Nc1nc(Cl)cc(NCC2(CO)CC(c3ccccc3)C2)n1,MDCK,,5–8.8 µM
CN(C)C1CC12C1CC3CC(C1)CC2C3,HEF,,>200 µg/mL
CCN(CC)CCN1C(=O)c2ccccc2NC1c1cccc(F)c1,HepG2 cells,luminescence,>20 µM
Cc1ccc(S(=O)(=O)N(CCC(C)C)[C@H](CO)CC(C)CCNC(=O)[C@@H](N)C(c2ccccc2)c2ccccc2)cc1,T lymphoid cells,microscopy,>10 µM
Cc1ccc(CNC(=O)c2ccc3ncnc(Nc4ccc(N5CCOCC5)cc4)c3c2)cc1,HUH 9B,,>25 µM
COc1cc2c(cc1OC)C1(CC=CCC1)N(C(C)=O)CC2,BJ,,<7.5 µM
CN1CCCC12C1CC3CC(C1)CC2C3,HEF,,>50 µg/mL
Nc1nc(N)c2ncn([C@@H]3S[C@H](CO)[C@@H](O)[C@@H]3F)c2n1,CCRF-HSB-2,,7 µM
O=C(O)c1cn(/N=C/c2ccc([N+](=O)[O-])cc2)c(=O)c2ccccc12,HEP-2/L-929/VERO,,250 µM
N#Cc1cnc(N)nc1NCC1(CO)CC(CCc2ccccc2)C1,MDCK,,1.7–3 µM
CCCc1cc(=O)oc2cc(OS(=O)(=O)c3ccc(C)cc3)c3c(c12)OC(C)(C)C=C3,CV-1,neutral red,>100 µg/mL
CCc1nc2ccccc2n1CCCCNc1ccc(C)cc1,VERO,luminescence,39 µM
CCN(CC)CCN1C(=O)c2ccccc2NC1c1ccc(OC)c(COc2cc(C(C)C)c(Cl)cc2C)c1,HepG2 cells,luminescence,>20 µM
O=c1[nH]c(=O)n([C@@H]2O[C@H](CO)[C@@H](O)[C@@H]2O)cc1I,CCRF-HSB-2,,>270 µM
COC(=O)N[C@H](C(=O)N[C@@H](C)CCC[C@@H](CO)N(C(C)C)S(=O)(=O)c1ccc([C@@H](C)O)cc1)C(c1ccccc1)c1ccccc1,T lymphoid cells,microscopy,>10 µM
CCOC(=O)CC1OP(=O)(OC[C@H]2O[C@@H](n3cc(/C=C/Br)c(=O)[nH]c3=O)C[C@@H]2O)Oc2cccc(Cl)c21,HELF,,35.8 µg/mL
CCCc1cc(=O)oc2cc(OCC(C)(C)C(=O)O)c3c(c12)OC(C)(C)C=C3,CV-1,neutral red,20 µg/mL
COC(=O)N[C@H](C(=O)N[C@@H](C)CCC[C@@H](CO)N(C(C)C)S(=O)(=O)c1ccc(CO)cc1)C(c1ccccc1)c1ccccc1,T lymphoid cells,microscopy,>10 µM
COc1cc2c(cc1[C@@H](C)Nc1ccccc1)C=CC(C)(C)O2,L6 rat skeletal myoblasts,,16.7 µM
CSCO[C@]1(C)COC(C)(CC(=O)OC[C@@H]2C=C[C@H](n3cnc4c(N)ncnc43)O2)C1,JM,,100 µM
O=C(O)c1cn(/N=C/c2ccc(Cl)cc2)c(=O)c2ccccc12,HEP-2/L-929/VERO,,100 µM
Nc1ccn([C@H]2CC[C@@H](CO)O2)c(=O)n1,MM,,>10 µM
O=c1[nH]c(=O)n([C@H]2C[C@H](O)[C@@H](COP3(=O)OCc4cccc(-c5ccccc5)c4O3)O2)cc1/C=C/Br,HELF,,35.3 µg/mL
O=C(O)c1cn(/N=C/C=C/c2ccc([N+](=O)[O-])cc2)c(=O)c2ccccc12,HEP-2/L-929/VERO,,150 µM
COc1cc2c(cc1[C@H](C)NS(=O)C(C)(C)C)C=CC(C)(C)O2,L6 rat skeletal myoblasts,,99.1 µM
CN(C)C(=O)c1ccc2ncnc(Nc3ccc(N4CCOCC4)cc3)c2c1,HUH 9B,,>25 µM
COc1cc2c(cc1[C@@H](C)N[S@@](=O)C(C)(C)C)C=CC(C)(C)O2,L6 rat skeletal myoblasts,,144 µM
CCCN([C@H](CO)CCC[C@H](C)NC(=O)[C@@H](NC(=O)OC)C(c1ccccc1)c1ccccc1)S(=O)(=O)c1ccc(N)cc1,T lymphoid cells,microscopy,>10 µM
CCc1nc2ccc(C)cc2n1CCCNc1ccc(OC)cc1,VERO,luminescence,91 µM
Cc1cc(=O)[nH]c2c1ccc1ncc(C(=O)O)c(C)c12,CAKI-1,,8 µg/mL
CC(C)Oc1cccc(-c2ccc(C(=O)N(Cc3cccc(OCCCCCC(=O)OC(=O)O)c3)C(C)C)cc2)c1,HEK 293,,>20 µM
Nc1ccn(C[C@@H](CO)OCP(=O)(O)O)c(=O)n1,MA-104,,2330 µM
O=c1[nH]c(=O)n([C@H]2C[C@H](O)[C@@H](COP3(=O)OCc4c(ccc5ccccc45)O3)O2)cc1/C=C/Br,HELF,,54.3 µg/mL
CCc1cn([C@@H]2O[C@H](CO)[C@@H](O)[C@@H]2O)c(=O)[nH]c1=O,CCRF-HSB-2,,>367 µM
c1nc(Nc2ccc(N3CCOCC3)cc2)c2cc(-c3ccc(C4OCCO4)o3)ccc2n1,HUH 9B,,10–25 µM
O=c1[nH]c(=O)n([C@@H]2O[C@H](CO)[C@@H](O)[C@@H]2O)cc1/C=C/Cl,CCRF-HSB-2,,>328 µM
C[C@H](Nc1ccccc1)c1cc2c(cc1O)OC(C)(C)C=C2,L6 rat skeletal myoblasts,,179 µM
N=C1Sc2ccccc2C2=NCCCN12,Macrophage,LDH,>300 µM
CCCCN1C(=O)c2ccccc2NC1c1ccc(OC)cc1,HepG2 cells,luminescence,>30 µM
COc1cc2c(cc1[C@@H](C)N(C)c1ccccc1)C=CC(C)(C)O2,L6 rat skeletal myoblasts,,46.3 µM
CCc1nc2ccccc2n1CCCNc1ccc(C)c(C)c1,VERO,luminescence,>100 µM
O=C(Nc1ccc(Cl)cc1)N1CCCC12C1CC3CC(C1)CC2C3,HEF,,150 µg/mL
O=C(O)c1cn(/N=C/c2ccc(Br)cc2)c(=O)c2ccccc12,HEP-2/L-929/VERO,,80 µM
CCCN(Cc1cccc(OCCCCCC(=O)OCC)c1)C(=O)c1ccc(Br)cc1,HEK 293,,>20 µM
CCCc1cc(=O)oc2c3c(c4c(c12)OC(C)(C)CC4)O[C@@H](C)[C@H](C)[C@@H]3O,MM,,10–20 µM
NCC1CC12C1CC3CC(C1)CC2C3,HEF,,28 µg/mL
CC[C@@H](CCC[C@@H](CO)N(CCC(C)C)S(=O)(=O)c1ccc(CO)cc1)NC(=O)[C@@H](NC)C(c1ccccc1)c1ccccc1,T lymphoid cells,microscopy,>10 µM
CCc1cn([C@@H]2S[C@H](CO)[C@@H](O)[C@@H]2F)c(=O)[nH]c1=O,CCRF-HSB-2,,>344 µM
CCCCN1C(=O)c2ccccc2NC1c1ccc(F)cc1,HepG2 cells,luminescence,>20 µM
COP(=O)(c1cc(C)cc(CCC#N)c1)c1c(C(N)=O)[nH]c2ccc(Cl)cc12,U-937,MTS,24.6 µM
CCCc1cc(=O)oc2c3c(c4c(c12)OC(C)(C)[C@H](O)[C@H]4OC(=O)c1cccc(Cl)c1)O[C@H](C)[C@@H](C)C3=O,CV-1,neutral red,2 µg/mL
CC[C@@H](CCC[C@@H](CO)N(C(C)C)S(=O)(=O)c1ccc(C(C)=O)cc1)NC(=O)[C@@H](NC(=O)OC)C(c1ccccc1)c1ccccc1,T lymphoid cells,microscopy,>10 µM
CO[C@H]1C[C@H](n2cc(/C=C/Br)c(=O)[nH]c2=O)O[C@@H]1COP1(=O)OCc2cccc(C)c2O1,HELF,,66.5 µg/mL
Cc1csc(-c2ccc3ncnc(Nc4ccc(N5CCOCC5)cc4)c3c2)c1,HUH 9B,,>25 µM
COC(=O)N[C@H](C(=O)N[C@H](CCC[C@@H](CO)N(CCC(C)C)S(=O)(=O)c1ccc([C@@H](C)O)cc1)C1CC1)C(c1ccc(F)cc1)c1ccc(F)cc1,T lymphoid cells,microscopy,>10 µM
CS(=O)(=O)c1ccc(-c2ccc3ncnc(Nc4ccc(N5CCOCC5)cc4)c3c2)cc1,HUH 9B,,>25 µM
CC(C)C1CC(CO)(CNc2nc(N)nc(Cl)c2C=O)C1,MDCK,,13–16 µM

The first 4 rows once more:

structure,cells,read by,value
COc1cccc(CNC(=O)c2ccc3ncnc(Nc4ccc(N5CCOCC5)cc4)c3c2)c1,HUH 9B,,>25 µM
O=c1[nH]c(=O)n([C@@H]2O[C@H](CO)[C@@H](O)[C@@H]2F)cc1I,CCRF-HSB-2,,4 µM
CCCc1cc(=O)oc2c(C(=O)CC)c(O)c(C(=O)CC)c(O)c12,CV-1,,80 µg/mL
Nc1ncc(/C=N/O)c(NCC2(CO)CCC2)n1,MDCK,,40–72 µM

Blank or dashed fields: not listed here. CCn: concentration that lowers growth or viability of the cells by n%. Lines come from different laboratories, so protocols vary.